We go through 13 compounds from paper PMC5382265, “Macrocycle peptides delineate locked-open inhibition mechanism for microorganism phosphoglycerate mutases” (Nature Communications, 2017).

Sequences of proteins named here, by UniProt entry; tags and fusion partners are left off. A change or cut given only in a name is not applied to a line headed by its entry.
UniProt I6LDA6: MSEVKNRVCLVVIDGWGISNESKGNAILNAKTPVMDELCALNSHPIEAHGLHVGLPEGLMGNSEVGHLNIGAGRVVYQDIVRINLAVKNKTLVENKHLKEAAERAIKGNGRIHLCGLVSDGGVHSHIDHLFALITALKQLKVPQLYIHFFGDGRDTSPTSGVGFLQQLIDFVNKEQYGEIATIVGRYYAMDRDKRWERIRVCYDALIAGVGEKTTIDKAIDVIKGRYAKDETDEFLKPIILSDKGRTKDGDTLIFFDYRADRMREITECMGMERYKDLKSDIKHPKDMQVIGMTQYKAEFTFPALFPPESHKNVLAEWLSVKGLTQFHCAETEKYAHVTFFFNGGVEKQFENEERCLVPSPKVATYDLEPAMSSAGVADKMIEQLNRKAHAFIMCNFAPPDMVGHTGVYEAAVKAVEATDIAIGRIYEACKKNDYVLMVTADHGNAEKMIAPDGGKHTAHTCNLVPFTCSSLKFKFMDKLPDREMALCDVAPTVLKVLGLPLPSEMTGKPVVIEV

The first assay concerns the target D. immitis iPGM (Dirofilaria immitis, UniProt F4ZE01). Put plainly: PGM enzyme-coupled bioluminescent end point assay (Kinase-Glo Plus). To be noted: Table 1; enzyme 10 nM; NA = no appreciable inhibitory activity. For orientation: Kinase-Glo reads ATP consumption through a luciferase reaction.
For the compound `CC[C@H](C)[C@@H]1NC(=O)[C@H](CCC(=O)O)NC(=O)[C@@H]2CCCN2C(=O)[C@H](C)NC(=O)[C@H](CC(N)=O)NC(=O)[C@@H]2CCCN2C(=O)[C@H](Cc2c[nH]c3ccccc23)NC(=O)[C@H](CO)NC(=O)[C@@H](Cc2ccc(O)cc2)NC(=O)CSC[C@@H](C(=O)N[C@@H](CS)C(=O)NCC(N)=O)NC(=O)[C@H](CCCCN)NC(=O)[C@H](Cc2c[nH]c3ccccc23)NC1=O` [Bm-1], the “pIC50, apparent D. immitis iPGM” value worked out at 5.99.
As to `CC(C)C[C@@H]1NC(=O)[C@@H](Cc2ccc(O)cc2)NC(=O)CSC[C@@H](C(=O)N[C@@H](CC(N)=O)C(=O)N[C@H](C(=O)N[C@@H](CS)C(=O)NCC(N)=O)[C@@H](C)O)NC(=O)[C@H](CC(N)=O)NC(=O)[C@@H]2CCCN2C(=O)[C@H](Cc2c[nH]c3ccccc23)NC(=O)[C@H](CCC(=O)O)NC1=O` [Bm-4], the “pIC50, apparent D. immitis iPGM” value turned out to be 6.21.
As for `CC(C)C[C@@H]1NC(=O)[C@@H](Cc2ccc(O)cc2)NC(=O)CSC[C@@H](C(=O)N[C@@H](CO)C(=O)N[C@H](C(=O)N[C@@H](CS)C(=O)NCC(N)=O)[C@@H](C)O)NC(=O)[C@H](CC(N)=O)NC(=O)[C@@H]2CCCN2C(=O)[C@H](Cc2c[nH]c3ccccc23)NC(=O)[C@H](CC(=O)O)NC1=O` [Bm-5], the “pIC50, apparent D. immitis iPGM” value is 6.10.
Same read-out and setting: the value for `C[C@@H](O)[C@H](NC(=O)[C@H](CO)NC(=O)[C@@H]1CSCC(=O)N[C@H](Cc2ccc(O)cc2)C(=O)N2CCC[C@H]2C(=O)N[C@@H](CCC(=O)O)C(=O)N[C@@H](Cc2c[nH]c3ccccc23)C(=O)N2CCC[C@H]2C(=O)N[C@@H](CC(N)=O)C(=O)N1)C(=O)N[C@@H](CS)C(=O)NCC(N)=O` [Bm-6] was 6.26; that for `CC(C)[C@@H]1NC(=O)[C@H](C)NC(=O)[C@@H](Cc2ccc(O)cc2)NC(=O)CSC[C@@H](C(=O)N[C@@H](CCCNC(=N)N)C(=O)N[C@H](C(=O)N[C@@H](CS)C(=O)NCC(N)=O)[C@@H](C)O)NC(=O)[C@H](CC(N)=O)NC(=O)[C@@H]2CCCN2C(=O)[C@H](Cc2c[nH]c3ccccc23)NC1=O` [Bm-7] was 5.42.
The same measure, in the same setting: the value for `CC(C)C[C@H](NC(=O)[C@H](Cc1ccc(O)cc1)NC(=O)[C@@H]1CSCC(=O)N[C@H](Cc2ccc(O)cc2)C(=O)N[C@@H](CC(=O)O)C(=O)N[C@@H](Cc2ccc(O)cc2)C(=O)N2CCC[C@H]2C(=O)NCC(=O)N[C@@H](CC(=O)O)C(=O)N[C@@H](Cc2c[nH]cn2)C(=O)N1)C(=O)N[C@@H](Cc1ccc(O)cc1)C(=O)NCC(=O)N[C@H](C(=O)N[C@@H](CS)C(=O)NCC(N)=O)[C@@H](C)O` [Ce-1] was 8.04; that for `CC(C)C[C@H](NC(=O)[C@H](Cc1ccc(O)cc1)NC(=O)[C@@H]1CSCC(=O)N[C@H](Cc2ccc(O)cc2)C(=O)N[C@@H](CC(=O)O)C(=O)N[C@@H](Cc2ccc(O)cc2)C(=O)N2CCC[C@H]2C(=O)NCC(=O)N[C@@H](CC(=O)O)C(=O)N[C@@H](Cc2ccc(O)cc2)C(=O)N1)C(=O)N[C@@H](Cc1ccc(O)cc1)C(=O)NCC(=O)N[C@H](C(=O)N[C@@H](CS)C(=O)NCC(N)=O)[C@@H](C)O` [Ce-2] was 8.21.

Still in this assay, the particulars now being: Table 2; PGM concentration as in Table 1 (10 nM); † estimated from incomplete curves.
Regarding `CC(C)C[C@H](NC(=O)[C@H](Cc1ccc(O)cc1)NC(=O)[C@@H]1CSCC(=O)N[C@H](Cc2ccc(O)cc2)C(=O)N[C@@H](CC(=O)O)C(=O)N[C@@H](Cc2ccc(O)cc2)C(=O)N2CCC[C@H]2C(=O)NCC(=O)N[C@@H](CC(=O)O)C(=O)N[C@@H](Cc2ccc(O)cc2)C(=O)N1)C(=O)N[C@@H](Cc1ccc(O)cc1)C(=O)NCC(=O)N[C@H](C(=O)N[C@@H](CO)C(=O)NCC(N)=O)[C@@H](C)O` [Ce-2S], the “pIC50 D. immitis iPGM” value was 6.01.
Still for that read-out and setting: the value for `CC(C)C[C@H](NC(=O)[C@H](Cc1ccc(O)cc1)NC(=O)[C@@H]1CSCC(=O)N[C@H](Cc2ccc(O)cc2)C(=O)N[C@@H](CC(=O)O)C(=O)N[C@@H](Cc2ccc(O)cc2)C(=O)N2CCC[C@H]2C(=O)NCC(=O)N[C@@H](CC(=O)O)C(=O)N[C@@H](Cc2ccc(O)cc2)C(=O)N1)C(=O)N[C@@H](Cc1ccc(O)cc1)C(=O)NCC(=O)N[C@H](C(N)=O)[C@@H](C)O` [Ce-2b] was 5.96; that for `CC(C)C[C@H](NC(=O)[C@H](Cc1ccc(O)cc1)NC(=O)[C@@H]1CSCC(=O)N[C@H](Cc2ccc(O)cc2)C(=O)N[C@@H](CC(=O)O)C(=O)N[C@@H](Cc2ccc(O)cc2)C(=O)N2CCC[C@H]2C(=O)NCC(=O)N[C@@H](CC(=O)O)C(=O)N[C@@H](Cc2ccc(O)cc2)C(=O)N1)C(=O)N[C@@H](Cc1ccc(O)cc1)C(=O)NCC(N)=O` [Ce-2c] was 5.70.
Same read-out and setting: the value for `CC(C)C[C@H](NC(=O)[C@H](Cc1ccc(O)cc1)NC(=O)[C@@H]1CSCC(=O)N[C@H](Cc2ccc(O)cc2)C(=O)N[C@@H](CC(=O)O)C(=O)N[C@@H](Cc2ccc(O)cc2)C(=O)N2CCC[C@H]2C(=O)NCC(=O)N[C@@H](CC(=O)O)C(=O)N[C@@H](Cc2ccc(O)cc2)C(=O)N1)C(N)=O` [Ce-2e] was 5.32; that for `CC(=O)N[C@H](Cc1ccc(O)cc1)C(=O)N[C@@H](CC(=O)O)C(=O)N[C@@H](Cc1ccc(O)cc1)C(=O)N1CCC[C@H]1C(=O)NCC(=O)N[C@@H](CC(=O)O)C(=O)N[C@@H](Cc1ccc(O)cc1)C(=O)N[C@@H](CO)C(=O)N[C@@H](Cc1ccc(O)cc1)C(=O)N[C@@H](CC(C)C)C(=O)N[C@@H](Cc1ccc(O)cc1)C(=O)NCC(=O)N[C@H](C(=O)N[C@@H](CS)C(=O)NCC(N)=O)[C@@H](C)O` [Ce-L2] was 5.18 ^†.

The same assay, now with this note: Table 2 rows marked *; PGM concentration 0.5 nM.
For the compound `CC(C)C[C@H](NC(=O)[C@H](Cc1ccc(O)cc1)NC(=O)[C@@H]1CSCC(=O)N[C@H](Cc2ccc(O)cc2)C(=O)N[C@@H](CC(=O)O)C(=O)N[C@@H](Cc2ccc(O)cc2)C(=O)N2CCC[C@H]2C(=O)NCC(=O)N[C@@H](CC(=O)O)C(=O)N[C@@H](Cc2ccc(O)cc2)C(=O)N1)C(=O)N[C@@H](Cc1ccc(O)cc1)C(=O)NCC(=O)N[C@H](C(=O)N[C@@H](CS)C(=O)NCC(N)=O)[C@@H](C)O` [Ce-2], the “pIC50 D. immitis iPGM” value turned out to be 9.36.
Regarding `CC(C)C[C@H](NC(=O)[C@H](Cc1ccc(O)cc1)NC(=O)[C@@H]1CSCC(=O)N[C@H](Cc2ccc(O)cc2)C(=O)N[C@@H](CC(=O)O)C(=O)N[C@@H](Cc2ccc(O)cc2)C(=O)N2CCC[C@H]2C(=O)NCC(=O)N[C@@H](CC(=O)O)C(=O)N[C@@H](Cc2ccc(O)cc2)C(=O)N1)C(=O)N[C@@H](Cc1ccc(O)cc1)C(=O)NCC(=O)N[C@H](C(=O)N[C@@H](CS)C(N)=O)[C@@H](C)O` [Ce-2a], the “pIC50 D. immitis iPGM” value was found to be 9.91.

For another assay, the target named is O. volvulus iPGM (Onchocerca volvulus, UniProt I6LDA6). Described as above. It is filed as biochemical. Conditions: Table 2; PGM concentration as in Table 1 (20 nM); † estimated from incomplete curves.
`CC(=O)N[C@H](Cc1ccc(O)cc1)C(=O)N[C@@H](CC(=O)O)C(=O)N[C@@H](Cc1ccc(O)cc1)C(=O)N1CCC[C@H]1C(=O)NCC(=O)N[C@@H](CC(=O)O)C(=O)N[C@@H](Cc1ccc(O)cc1)C(=O)N[C@@H](CO)C(=O)N[C@@H](Cc1ccc(O)cc1)C(=O)N[C@@H](CC(C)C)C(=O)N[C@@H](Cc1ccc(O)cc1)C(=O)NCC(=O)N[C@H](C(=O)N[C@@H](CS)C(=O)NCC(N)=O)[C@@H](C)O` [Ce-L2]: the pIC50 O. volvulus iPGM is 5.18 ^†.
